In article PMC4057017 one finds stoichiometry N (Fabs per trimer), stoichiometry N and percent of total Env content purified data, which are given here for two substances.

“And” between values parts separate entries of the source, which are not always exact repeats. Equal entries are not always repeated. Where two headings read alike, the source gives them in different places.

One may read the stoichiometry N as a count of units in the complex or per binding partner.

The target in assay [1] is IAVI C22 EnvΔCT trimer (cleaved, membrane-derived) (HIV-1 isolate IAVI C22 (clade C)). Kind of assay: single particle EM reconstruction.
Assay [2] has as its target BG505 SOSIP.664 gp140 trimer (soluble, cleaved) (HIV-1 isolate BG505 (clade A)). As to the kind of experiment: single particle EM.
Assay [3] deals with IAVI C22 EnvΔCT trimer (cleaved, membrane-derived) (HIV-1 isolate IAVI C22 (clade C)). As to the kind of experiment: single particle EM reconstruction. This is another data set of the same source.
Assay [4] addresses BG505 SOSIP.664 gp140 trimer (soluble, cleaved) (HIV-1 isolate BG505 (clade A)). Kind of assay: ITC. (In general: ITC needs no label: the signal is the heat of the interaction.)
Assay [5] deals with IAVI C22 EnvΔCT trimer (cleaved, membrane-derived) (HIV-1 isolate IAVI C22 (clade C)). As to the kind of experiment: pull-down.

PGT151 Fab: the stoichiometry N (Fabs per trimer) in assay [1] is 2; in assay [2] it was 2 and 1; in assay [3], 1. Also, the stoichiometry N in assay [4] is 1.3.

Regarding PGT151 IgG (antibody), the percent of total Env content purified in assay [5] stood at 10%.
